According to paper PMC8136818:

How the values were obtained:
[1] = test system: T1, SmpO49 (Staphylococcus aureus plasmid pWBG749); assay: SPR (ReDCaT); settings: 10 mM HEPES, 3 mM EDTA, 0.05% Tween 20, NaCl 150 mM (SmpO49 screens), 300 mM (SmpO45, SmpO408, SmpOUNa screens) or 250 mM (Table S4), pH and temperature not stated, high values mean tight binding, recombinant protein, protein details: His6-TEV, cleaved, counted as no binding
T1 sequence (looked up, limits assumed): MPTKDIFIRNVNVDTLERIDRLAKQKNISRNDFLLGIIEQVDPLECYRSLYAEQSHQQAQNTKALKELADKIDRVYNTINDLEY

[2] = test system: T2, SmpO408 (Staphylococcus aureus M0408); assay: SPR (ReDCaT); settings: 250 mM NaCl, 10 mM HEPES, 3 mM EDTA, 0.05% Tween 20, NaCl 150 mM (SmpO49 screens), 300 mM (SmpO45, SmpO408, SmpOUNa screens) or 250 mM (Table S4), pH and temperature not stated, high values mean tight binding, recombinant protein, protein details: His6-TEV, cleaved, counted as no binding
T2 sequence (looked up, limits assumed): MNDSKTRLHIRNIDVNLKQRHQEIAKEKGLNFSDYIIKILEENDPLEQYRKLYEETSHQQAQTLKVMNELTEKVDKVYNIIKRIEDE

[3] = test system: T3, SmpO49-F7K (Staphylococcus aureus plasmid pWBG749); assay: SPR (ReDCaT); settings: 250 mM NaCl, 10 mM HEPES, 3 mM EDTA, 0.05% Tween 20, NaCl 150 mM (SmpO49 screens), 300 mM (SmpO45, SmpO408, SmpOUNa screens) or 250 mM (Table S4), pH and temperature not stated, high values mean tight binding, recombinant protein, protein details: His6-TEV, cleaved, counted as no binding
T3 sequence (looked up, limits assumed): T1 sequence (looked up, limits assumed) with F7K

[4] = test system: T4, SmpO45 (Staphylococcus aureus plasmid pWBG745); assay: SPR (ReDCaT); settings: 10 mM HEPES, 3 mM EDTA, 0.05% Tween 20, NaCl 150 mM (SmpO49 screens), 300 mM (SmpO45, SmpO408, SmpOUNa screens) or 250 mM (Table S4), pH and temperature not stated, high values mean tight binding, recombinant protein, protein details: His6-TEV, cleaved, counted as no binding
T4 sequence (looked up, limits assumed): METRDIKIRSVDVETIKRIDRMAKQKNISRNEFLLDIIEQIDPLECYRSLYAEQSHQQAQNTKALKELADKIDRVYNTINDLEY

[5] = test system: SmpO45-K7F (Staphylococcus aureus plasmid pWBG745); assay: SPR; settings: SPR: 10 mM HEPES, 150-300 mM NaCl, 3 mM EDTA, 0.05% Tween 20, 1 uM protein (pH, temperature not given); recombinant protein; protein details: His6-TEV, cleaved
[6] = test system: T4, SmpO45 (Staphylococcus aureus plasmid pWBG745); assay: SPR; settings: 250 mM NaCl; SPR: 10 mM HEPES, 150-300 mM NaCl, 3 mM EDTA, 0.05% Tween 20, 1 uM protein (pH, temperature not given); recombinant protein; protein details: His6-TEV, cleaved
[7] = test system: T3, SmpO49-F7K (Staphylococcus aureus plasmid pWBG749); assay: SPR; settings: SPR: 10 mM HEPES, 150-300 mM NaCl, 3 mM EDTA, 0.05% Tween 20, 1 uM protein (pH, temperature not given), recombinant protein, protein details: His6-TEV, cleaved
SmpOUNa [8] = test system: T5, SmpOUNa; assay: SPR; settings: SPR: 10 mM HEPES, 150-300 mM NaCl, 3 mM EDTA, 0.05% Tween 20, 1 uM protein (pH, temperature not given), recombinant protein, protein details: His6-TEV, cleaved
T5 sequence (looked up, limits assumed): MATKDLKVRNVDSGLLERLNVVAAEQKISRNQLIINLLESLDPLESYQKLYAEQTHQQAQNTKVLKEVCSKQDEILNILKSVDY

SmpOUNa [9] = test system: T5, SmpOUNa; assay: SPR (ReDCaT); settings: 250 mM NaCl, 10 mM HEPES, 3 mM EDTA, 0.05% Tween 20, NaCl 150 mM (SmpO49 screens), 300 mM (SmpO45, SmpO408, SmpOUNa screens) or 250 mM (Table S4), pH and temperature not stated, high values mean tight binding, recombinant protein, protein details: His6-TEV, cleaved, counted as no binding
[10] = test system: T2, SmpO408 (Staphylococcus aureus M0408); assay: SPR; settings: SPR: 10 mM HEPES, 150-300 mM NaCl, 3 mM EDTA, 0.05% Tween 20, 1 uM protein (pH, temperature not given), recombinant protein, protein details: His6-TEV, cleaved
[11] = test system: T6, SmpOSep (Staphylococcus epidermidis VCU120); assay: SPR (ReDCaT); settings: 250 mM NaCl, 10 mM HEPES, 3 mM EDTA, 0.05% Tween 20, NaCl 150 mM (SmpO49 screens), 300 mM (SmpO45, SmpO408, SmpOUNa screens) or 250 mM (Table S4), pH and temperature not stated, high values mean tight binding, recombinant protein, protein details: His6-TEV, cleaved, counted as no binding
T6 sequence (looked up, limits assumed): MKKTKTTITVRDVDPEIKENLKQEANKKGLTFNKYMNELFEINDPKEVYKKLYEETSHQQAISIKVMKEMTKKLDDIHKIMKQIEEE

[12] = test system: T1, SmpO49 (Staphylococcus aureus plasmid pWBG749); assay: SPR; settings: SPR: 10 mM HEPES, 150-300 mM NaCl, 3 mM EDTA, 0.05% Tween 20, 1 uM protein (pH, temperature not given), recombinant protein, protein details: His6-TEV, cleaved
[13] = test system: T6, SmpOSep (Staphylococcus epidermidis VCU120); assay: SPR; settings: 250 mM NaCl; SPR: 10 mM HEPES, 150-300 mM NaCl, 3 mM EDTA, 0.05% Tween 20, 1 uM protein (pH, temperature not given); recombinant protein; protein details: His6-TEV, cleaved
[14] = 250 mM NaCl, letters put together from the description
[15] = letters put together from the description
[16] = 150 mM NaCl, letters put together from the description
[17] = 300 mM NaCl, letters put together from the description

Sequence “AAAATGGGTACATATT (double strand) [ossBUNa]” has a binding signal [1, 14] of 0.1 %Rmax, a binding signal [2, 15] of 0 %Rmax and a binding signal [3, 15] of 0 %Rmax.
For “AAACCCTTGGAATGTCTGGCTTTGCCAGAC (double strand) [OT49.7]”, the binding signal [1, 16] was 0.0706 %Rmax.
With “AAATGTCCTAAAACCCTTGGAATGTCTGGC (double strand) [OT49.6]” the binding signal [1, 16] was 0 %Rmax.
“AACCCTTGAAATGGCTGGCTTTGCCAGCCA (double strand) [OT45.7]” showed a binding signal [4, 17] of 0.0787 %Rmax.
Work on “AATATGGGGTCATATT (double strand) [ossB45]” yielded a binding signal [1, 14] of 0.2 %Rmax.
In the case of “AATGTCTGGCTTTGCCAGACCTATCATTGT (double strand) [OT49.8]”, the binding signal [1, 16] is reported as 0 %Rmax.
Work on “AATTCTTTAAAACCCTTGAAATGGCTGGCT (double strand) [OT45.6]” yielded a binding signal [4, 17] of 0.136 %Rmax.
In the case of “ACAAAAATGTGACACTAGGTGTTTTTATGA (double strand) [OT49.2]”, the binding signal [1, 16] is reported as 0 %Rmax.
“ACAAAACTGTGACACTATAGTTTATTGTGG (double strand) [OT45.2]” gave a binding signal [4, 17] of 0.0962 %Rmax.
“ATATAGTGTCACAAAAATGTGACACTAGGT (double strand) [OT49.1]” showed a binding signal [1, 16] of 0 %Rmax.
“ATATAGTGTCACAAAACTGTGACACTATAG (double strand) [OT45.1]” showed a binding signal [4, 17] of 0.144 %Rmax.
In the case of “ATGGCTGGCTTTGCCAGCCACCCCATAAAA (double strand) [OT45.8]”, the binding signal [4, 17] is reported as 0.18 %Rmax.
“ATTGTGCGGTCACTTT (double strand) [ossA45-7]” was tested, and the binding signal [4, 17] was 0.194 %Rmax.
In the case of “ATTGTGGCGTCACTTT (double strand) [ossA45-8]”, the binding signal [4, 17] is reported as 0.313 %Rmax.
Work on “ATTGTGGGGTCACTTT (double strand) [ossA45]” yielded a binding signal ([1]; 250 mM NaCl) of 0.1 %Rmax.
“ATTGTGGGGTCACTTT / AAAGTGACCCCACAATCCTACCCTACGTCCTCCTGC [ossA45]”: no binding [5]; binds [6]; binds ([7]; as strong as SmpO45). “ATTGTGGGGTCACTTT / AAAGTGACCCCACAATCCTACCCTACGTCCTCCTGC [ossA45]”: binds (SmpOUNa [8]; 250 mM NaCl).
Work on “CCGATGATAGCAAATT (double strand) [ossB49]” yielded a binding signal [4, 14] of 0 %Rmax, a binding signal [2, 15] of 0 %Rmax and a binding signal [3, 15] of 0 %Rmax. It also gave a binding signal (SmpOUNa [9]; [15]) of 0 %Rmax.
“CGGTTTTATAGGCGCCTAATAAAAACCTCT / AGAGGTTTTTATTAGGCGCCTATAAAACCGCCTACCCTACGTCCTCCTGC [OT408.5]”: binds ([10]; 300 mM NaCl).
With “GTGACCCCCATAAGAT (double strand) [ossAUNa]” the binding signal ([1]; 250 mM NaCl) was 0 %Rmax and the binding signal [11] was 0 %Rmax.
“GTGACCCCCATAAGAT / ATCTTATGGGGGTCACCCTACCCTACGTCCTCCTGC [ossAUNa]”: no binding [5]; binds (SmpOUNa [8]; 250 mM NaCl).
“GTTTTTATGATATCACTATGAAATGTCCTA / TAGGACATTTCATAGTGATATCATAAAAACCCTACCCTACGTCCTCCTGC [OT49.4]”: binds ([12]; 150 mM NaCl).
“TAAATGTATGCATATT (double strand) [ossBSep]” was tested, and the binding signal [1, 14] was 0.1 %Rmax, the binding signal [4, 14] was 0.3 %Rmax and the binding signal [2, 15] was 0 %Rmax. It also gave a binding signal [3, 15] of 0 %Rmax and a binding signal (SmpOUNa [9]; [15]) of 0 %Rmax.
In the case of “TAATAGGTGGCAAATT (double strand) [ossB408]”, the binding signal [1, 14] is reported as 0.2 %Rmax, the binding signal [11, 15] is reported as 0.1 %Rmax and the binding signal [3, 15] is reported as 0 %Rmax. For the same sequence, the binding signal (SmpOUNa [9]; [15]) was 0 %Rmax.
“TATCACTATGAAATGTCCTAAAACCCTTGG (double strand) [OT49.5]” was tested, and the binding signal [1, 16] was 0 %Rmax.
“TTAATTTTTGTGACCCCCATAAGATAAATG / CATTTATCTTATGGGGGTCACAAAAATTAACCTACCCTACGTCCTCCTGC [OTUNA.4]”: binds (SmpOUNa [8]; 300 mM NaCl).
For “TTATAGGCGCCTAATA (double strand) [ossA408]”, the binding signal ([1]; 250 mM NaCl) was 0 %Rmax, the binding signal ([4]; 250 mM NaCl) was 0 %Rmax and the binding signal [11] was 0 %Rmax. For the same sequence, the binding signal [3] was 0 %Rmax and the binding signal (SmpOUNa [9]) was 0 %Rmax.
“TTATAGGCGCCTAATA / TATTAGGCGCCTATAACCTACCCTACGTCCTCCTGC [ossA408]”: no binding [5]; binds ([10]; 250 mM NaCl).
For “TTTATGAAATCACTAT (double strand) [ossA49-8]”, the binding signal [1, 16] was 0.00478 %Rmax.
For “TTTATGATAACACTAT (double strand) [ossA49-10]”, the binding signal [1, 16] was 0.0987 %Rmax.
“TTTATGATATCACTAT (double strand) [ossA49]” was tested, and the binding signal ([4]; 250 mM NaCl) was 0 %Rmax, the binding signal [2] was 0.1 %Rmax and the binding signal [3] was 0 %Rmax. It also gave a binding signal (SmpOUNa [9]) of 0 %Rmax.
“TTTATGATATCACTAT / ATAGTGATATCATAAACCTACCCTACGTCCTCCTGC [ossA49]”: no binding [5]; binds ([12]; 250 mM NaCl); no binding [7].
Work on “TTTATGATTTCACTAT (double strand) [ossA49-9]” yielded a binding signal [1, 16] of 0.0202 %Rmax.
“TTTATGTTATCACTAT (double strand) [ossA49-7]” showed a binding signal [1, 16] of 0.101 %Rmax.
“TTTGCATACATTTAAA / TTAAATGTATGCAAA [ossASep]” was tested, and the binding signal ([1]; 250 mM NaCl) was 0 %Rmax, the binding signal ([4]; 250 mM NaCl) was 0 %Rmax and the binding signal [2] was 0 %Rmax. The binding signal [3] was 0 %Rmax and the binding signal (SmpOUNa [9]) was 0 %Rmax.
“TTTGCATACATTTAAA / TTAAATGTATGCAAACCTACCCTACGTCCTCCTGC [ossASep]”: no binding [5]; binds [13].
Work on “TTTGCCAGACCTATCATTGTCCGATGATAG (double strand) [OT49.9]” yielded a binding signal [1, 16] of 0 %Rmax.

Positions count from the first letter of the chain named. For some assays here: Tags and fusion partners may be left off the protein sequences shown. The exact form of at least one protein or probe is not confirmed. For some assays here: A negative result means that nothing was seen under these conditions. For some assays here: At least one verdict rests on a figure or table, not on a statement of the authors.
